Compound potency records, mixed from different reports. Data source: NIAID ChemDB in PubChem.

All rows: growth or infection tests; agent: Plasmodium falciparum

Blank or dashed fields: not listed here.

| smiles | changes | cells | dose | setting | strain or isolate | read by | measure | result |
|---|---|---|---|---|---|---|---|---|
| CCO/C(=N/NC(=O)OC(C)(C)C)C(C)(O)c1ccc2ccccc2c1 |  |  | 5 µM |  | 3D7 | hypoxanthine uptake / radiometric | inhibition | 56% |
| CCN(CC)c1nc(Cl)nc(Nc2nc(-c3ccc(Cl)c(Cl)c3)cs2)n1 |  |  | 50 µg/mL |  | 3D7 |  | inhibition | 7% |
| COc1cc(C(=N)N)ccc1OCCCCCOc1ccc(C(=N)N)cc1OC |  |  |  |  | W2 | hypoxanthine uptake | EC50 | 0.101 µM |
| CCCCSc1nc(Nc2nc(-c3ccc(Cl)c(Cl)c3)cs2)nc(N(CC)CC)n1 |  |  | 50 µg/mL |  | 3D7 |  | inhibition | 12% |
| CC[C@H]1OC(=O)[C@H](C)[C@@H](OC2C[C@@](C)(OC)[C@@H](O)[C@H](C)O2)[C@H](C)[C@@H](OC2O[C@H](C)C[C@H](N(C)C)[C@H]2O)[C@](C)(OC2C[C@@H](N(C)C)[C@@H](O)[C@H](C)O2)C[C@@H](C)CN(C)[C@H](C)[C@@H](O)[C@]1(C)O |  | RBC |  | 120 h | 3D7AziR | fluorescence | EC50 | 0.21 µM |
| C[C@H]1CCc2c([nH]c3ccccc23)[C@@]2(N1)C(=O)Nc1ccc(Cl)cc12 | GNF-Pf4492-resistant A187V |  |  |  | GNF-Pf4492R-3 | SYBR Green / fluorescence | EC50 | 0.14 µM |
| CCN(CC)CCCC(C)Nc1ccnc2cc(Cl)ccc12 |  |  | 0.031 µg/mL | 72 h | Dd2 |  | inhibition | 60% |
| CCO/C(=N/NC(=O)NCc1ccccc1)C(C)(O)c1ccc2ccccc2c1 |  |  | 5 µM |  | 3D7 | hypoxanthine uptake / radiometric | inhibition | 5% |
| CC[C@H]1OC(=O)[C@H](C)[C@@H](OC2C[C@@](C)(OC)[C@@H](O)[C@H](C)O2)[C@H](C)[C@@H](OC2O[C@H](C)C[C@H](N(C)C)[C@H]2O)[C@](C)(OC2C[C@@H](N(C)C)[C@@H](O)[C@H](C)O2)C[C@@H](C)C(=O)[C@H](C)[C@@H](O)[C@]1(C)O |  | RBC |  | 120 h | 3D7 | fluorescence | EC50 | 10.1 µM |
| CCCCCCCCCCCC(=O)NC(CCCC[NH3+])C(=O)NC(CCCC[NH3+])C(=O)NCCCCCCCC(=O)NC(CCCC[NH3+])C(N)=O |  |  |  |  | NF54 | hypoxanthine uptake | EC50 | >10 µM |
| N=C(N)c1ccc(OCCCCCCOc2ccc(C(=N)N)cc2)cc1 |  |  |  |  | D6 | hypoxanthine uptake | EC50 | 0.123 µM |
| CCCO/C(=N/NC(=O)OCC)C(C)(O)c1ccc2ccccc2c1 |  |  | 5 µM |  | 3D7 | hypoxanthine uptake / radiometric | inhibition | 85% |
| CCCCCCCCCCCC(=O)NC(CCCC[NH3+])C(=O)NC(CCCC[NH3+])C(=O)CCCCCC(=O)NCCCCCC(=O)NC(CCCC[NH3+])C(N)=O |  |  |  |  | NF54 | hypoxanthine uptake | EC50 | >10 µM |
| Cn1nc(C(F)(F)F)c(-c2ccc(Br)cc2)c1NC(=O)Nc1ccc(F)cc1F | GNF-Pf4492-resistant I203L/P990R |  |  |  | GNF-Pf4492R-2 | SYBR Green / fluorescence | EC50 | 0.811 µM |
| CCCCCCCCCCCC(=O)NC(CCCC[NH3+])C(=O)NCCCC(=O)NC(CCCC[NH3+])C(=O)NCCCC(=O)NC(CCCC[NH3+])C(N)=O |  |  |  |  | NF54 | hypoxanthine uptake | EC50 | >10 µM |
| N=C(N)c1ccc(NCCCCCNc2ccc(C(=N)N)cc2N)c(N)c1 |  |  |  |  | D6 | hypoxanthine uptake | EC50 | 0.084 µM |
| CCOC(=O)N/N=C(/OCc1ccccc1)C(C)(O)c1ccc2ccccc2c1 |  |  | 5 µM |  | 3D7 | hypoxanthine uptake / radiometric | inhibition | 0% |
| CCN(CC)CCCC(C)Nc1ccnc2cc(Cl)ccc12 |  |  |  |  | Dd2 (CM1) | SYBR Green / fluorescence | EC50 | 0.0106 µM |
| CCN(CC)c1nc(Nc2nc(-c3ccc(Cl)c(Cl)c3)cs2)nc(Sc2ccccc2)n1 |  |  | 50 µg/mL |  | 3D7 |  | inhibition | 1.5% |
| NC(=O)C(CCCC[NH3+])NC(=O)CCCCCCCNC(=O)C(CCCC[NH3+])NC(=O)CCCCCCCNC(=O)C(CCCC[NH3+])NC(=O)CCCCCCCNC(=O)C(CCCC[NH3+])NC(=O)CCCCCCCNC(=O)C(N)CCCC[NH3+] |  |  |  |  | FCR3 | hypoxanthine uptake | EC50 | 90 µM |
| CCC[C@H]1O[C@@H]2CC(=O)O[C@@H]2C2=C1C(=O)c1c(O)cccc1C2=O |  |  | 2 µM |  | 7G8 | SYBR Green | inhibition | 90% |
| CCOC(=O)N/N=C(/OCC)C(C)(O)c1ccc(F)c(Br)c1 |  |  | 5 µM |  | 3D7 | hypoxanthine uptake / radiometric | inhibition | 70% |
| N=C(N)c1ccc(NCCCNc2ccc(C(=N)N)cc2)cc1 |  |  |  |  | W2 | hypoxanthine uptake | EC50 | 0.076 µM |
| CCCCCCCCCCCC(=O)NC(CCCC[NH3+])C(=O)NCCCCCCCCCCCC(=O)NC(CCCC[NH3+])C(=O)NCCCCCCCCCCCC(=O)NC(CCCC[NH3+])C(N)=O |  |  |  |  | FCR3 | hypoxanthine uptake | EC50 | 0.9 µM |
| c1cc(C2=NCCN2)ccc1OCCCCOc1ccc(C2=NCCN2)cc1 |  |  |  |  | D6 | hypoxanthine uptake | EC50 | 0.164 µM |
| CCCCCCCCCCCC(=O)NC(CCCC[NH3+])C(=O)NCCCCCCCCCCCC(=O)NC(CCCC[NH3+])C(=O)NCCCCCCCCCCCC(=O)NC(CCCC[NH3+])C(=O)NCCCCCCCCCCCC(=O)NC(CCCC[NH3+])C(N)=O |  |  |  |  | FCR3 | hypoxanthine uptake | EC50 | 0.7 µM |
| C=CCNc1nc(Nc2nc(-c3ccc(Cl)c(Cl)c3)cs2)nc(N(CC)CC)n1 |  |  | 50 µg/mL |  | 3D7 |  | inhibition | 2% |
| NCCCCCCCC(=O)NC(CCCC[NH3+])C(=O)NCCCCCCCC(=O)NC(CCCC[NH3+])C(=O)NCCCCCCCC(=O)NC(CCCC[NH3+])C(=O)NCCCCCCCC(=O)NC(CCCC[NH3+])C(N)=O |  |  |  |  | FCR3 | hypoxanthine uptake | EC50 | 94 µM |
| CCOC(=O)N/N=C(/OCCc1ccccc1)C(C)(O)c1ccc2ccccc2c1 |  |  | 5 µM |  | 3D7 | hypoxanthine uptake / radiometric | inhibition | 0% |
| CCCCCCCCCCCC(=O)NC(CCCC[NH3+])C(=O)NCCCCCCCC(=O)NC(CCCC[NH3+])C(N)=O |  |  |  |  | FCR3 | hypoxanthine uptake | EC50 | 0.4 µM |
| CCOC(=O)N/N=C(/OC)C(C)(O)c1ccc2ccccc2c1 |  |  | 5 µM |  | 3D7 | hypoxanthine uptake / radiometric | inhibition | 76% |

Repeating the first 2 entries:

smiles | changes | cells | dose | setting | strain or isolate | read by | measure | result
CCO/C(=N/NC(=O)OC(C)(C)C)C(C)(O)c1ccc2ccccc2c1 |  |  | 5 µM |  | 3D7 | hypoxanthine uptake / radiometric | inhibition | 56%
CCN(CC)c1nc(Cl)nc(Nc2nc(-c3ccc(Cl)c(Cl)c3)cs2)n1 |  |  | 50 µg/mL |  | 3D7 |  | inhibition | 7%

Inhibition is in % at the dose shown (toxicity tests: loss of growth or viability). Rows are shuffled and stem from different studies. ECn is the concentration giving n% inhibition of infection, replication or growth.